Reference: paper PMC5770049, “Amino acid substitutions affecting aspartic acid 605 and valine 606 decrease the interaction strength between the influenza virus RNA polymerase PB2 '627' domain and the viral nucleoprotein” (2018)
Where two headings read alike, the source gives them in different places.

Experiments:
[1] = molecular target: PB2 '627' domain (amino acids 538-693) of A/Hong Kong/156/97 (H5N1), wild type, unlabelled (influenza A virus A/Hong Kong/156/97 (H5N1))
[2] = molecular target: PB2 '627' domain (amino acids 538-693) of A/Hong Kong/156/97 (H5N1), wild type, unlabelled (influenza A virus A/Hong Kong/156/97 (H5N1)); remark: listed apart in the source

| Substance | Kd [1] | koff [1] | kon [1] | Kd [2] |
| --- | --- | --- | --- | --- |
| NP fragment 146-185 | 927 nM | 0.067 s⁻¹ | 72300 M⁻¹ s⁻¹ |  |
| NP mutant R416A (monomeric) |  |  |  | 274 nM |
